{"source": "paper PMC7527780", "system": "O=C(O)CC(O)(CC(=O)O)C(=O)O", "test": "purified protein", "details": "pH 8.0; 37.0 °C", "data": [{"substance": "AcnA (M. tuberculosis aconitase) (Mycobacterium tuberculosis H37Rv)", "values": [{"measurement": "Km", "result": "3.3 ± 0.2", "unit": "mM"}]}]}
